Compound potency records, mixed from different reports. Data source: NIAID ChemDB in PubChem.

All rows: tests on isolated targets; target: CCR5; read-out: IC50

ICn is the concentration giving n% inhibition. Lines come from different laboratories, so protocols vary.

compound	read by	value
Cc1ccc(-c2ccc3c(c2)C=C(C(=O)Nc2ccc(C[N+](C)(C)C4CCOCC4)cc2)CCO3)cc1	radiometric	0.0014 µM
CN1CC(C(=O)N(CCCN2CCC(Cc3ccccc3)CC2)c2ccc(Cl)c(Cl)c2)CC1=O	radiometric	<1 µM
c1cc2c(c(NCc3ccc(CN4CCCNCCNCCCNCC4)cc3)c1)CCCC2	fluorescence	<10 µM
Cc1ccc(-c2ccc3c(c2)C=C(C(=O)Nc2ccc(CN(C)C4CCC(=O)CC4)cc2)CCO3)cc1	radiometric	0.63 µM
C=C(C)[C@H]1CC[C@@]2(C)CC[C@]3(C)C[C@@H]4[C@H](/C(C=O)=C\C[C@H]3[C@H]12)[C@H](O)C[C@@H]4C	radiometric	>33 µM
CN(C[C@@H](CCN1CCC2(CC1)CN(S(C)(=O)=O)c1ccccc12)c1ccc(Cl)c(Cl)c1)S(=O)(=O)c1ccccc1	radioligand binding / binding	0.5 µM
Cc1ccc(-c2ccc3c(c2)C=C(C(=O)Nc2ccc(CP4(=O)OCCCO4)cc2)CCO3)cc1	radiometric	0.4 µM
CN(CC(CCN1CCC(c2ccccc2)CC1)c1ccccc1)S(=O)(=O)c1ccccc1	radiometric	0.03 µM
CN1CC(C(=O)N(CCCN2CCC(Cc3ccccc3)CC2)c2ccccc2)CC1=O	radiometric	<1 µM
Cc1ccc(-c2ccc3c(c2)C=C(C(=O)Nc2ccc(CN(C)C4CCSCC4)cc2)CCO3)cc1	radiometric	1.6 µM
CCCCOCCOc1ccc(-c2ccc3c(c2)C=C(C(=O)Nc2ccc(CN(C)C4CCOCC4)cc2)CCN3Cc2cnn(C)c2)cc1	radiometric	0.0027 µM
O=C1CC(C(=O)N(CCCN2CCC(Cc3ccccc3)CC2)c2ccccc2)CN1CC(F)(F)F	radiometric	<1 µM
CCCCOCCOc1ccc(-c2ccc3c(c2)C=C(C(=O)Nc2ccc([C@H](O)c4cccc[n+]4[O-])c(C(F)(F)F)c2)CCN3CC(C)C)cc1	radiometric	0.0072 µM
C=CCN(C(=O)OCc1ccc([N+](=O)[O-])cc1)C1CCN(C[C@@H]2CN(C(=O)C3CCCC3)C[C@@]2(O)c2ccccc2)CC1	radiometric	0.386 µM
c1ccc2c(NCc3ccc(CN4CCCNCCNCCCNCC4)cc3)cccc2c1	fluorescence	<10 µM
Cc1ccc(-c2ccc3c(c2)C=C(C(=O)Nc2ccc(CN4CCCCC4)cc2)CCC3)cc1	radiometric	2.6 µM
C=CCN(Cc1ccc(OC)cc1)C1CCN(C[C@H]2CN(C(=O)C3CCCC3)C[C@]2(O)c2ccccc2)CC1	radiometric	>1 µM
Cc1ccc(-c2ccc3c(c2)C=C(C(=O)Nc2ccc(CN(C)C4CCOCC4)cc2)CCS3(=O)=O)cc1	radiometric	0.2 µM
CN1CC(C(=O)N(CCCN2CCC(C(=O)c3ccc(F)cc3)CC2)c2ccccc2)CC1=O	radiometric	>1 µM
CCCCOCCOc1ccc(-c2ccc3c(c2)C=C(C(=O)Nc2ccc(CN(C)C4CCOCC4)cc2)CCN3c2ccccc2)cc1	radiometric	0.0056 µM
O=C1CC(C(=O)N(CCCN2CCC(Cc3ccccc3)CC2)c2ccccc2)CN1Cc1ccccc1	radiometric	<1 µM
CCCCCOCCOc1ccc(-c2ccc3c(c2)C=C(C(=O)Nc2ccc(CN(C)C4CCOCC4)cc2)CCS3(=O)=O)cc1	radiometric	0.72 µM
Cc1ccc(-c2ccc3c(c2)C=C(C(=O)Nc2ccc(CN(C)C4CCOCC4)cc2)CCN3C)cc1	radiometric	0.13 µM
Cc1ccc(-c2ccc3c(c2)C=C(C(=O)N=C2C=CC(=C4C=CC=CN4O)C=C2)CCO3)cc1	radiometric	>10 µM
CCOCCCOc1ccc(-c2ccc3c(c2)C=C(C(=O)Nc2ccc(CN(C)C4CCOCC4)cc2)CCS3(=O)=O)cc1	radiometric	0.068 µM
CCCCOCCOc1ccc(-c2ccc3c(c2)C=C(C(=O)Nc2ccc([C@H](O)c4cccc[n+]4[O-])cc2)CCN3CC(C)C)cc1	radiometric	0.015 µM
Cc1ccc(-c2ccc3c(c2)C=C(C(=O)Nc2ccc(CN4CCCCC4)cc2)CCO3)cc1	radiometric	4 µM
CN(C[C@@H](CCN1CCC2(CC1)CS(=O)c1ccccc12)c1ccc(Cl)c(Cl)c1)S(=O)(=O)c1ccc(-c2ccon2)s1	radioligand binding / binding	0.02 µM
Cc1ccc(-c2ccc3c(c2)C=C(C(=O)Nc2ccc(Cc4cccc[n+]4[O-])cc2)CCO3)cc1	radiometric	1.1 µM
C=C(C)[C@H]1CC[C@@]2(C)CC[C@]3(C)C[C@@H]4[C@H](/C(CO)=C\C[C@H]3[C@H]12)[C@H](O)C[C@@H]4C	radiometric	>33 µM
CCCCOCCOc1ccc(-c2ccc3c(c2)C=C(C(=O)Nc2ccc([C@H](O)c4cccc[n+]4[O-])cc2)CCN3Cc2cnn(C)c2)cc1	radiometric	0.017 µM
CN(Cc1ccccc1)C[C@@H](CCN1CCC2(CC1)CS(=O)c1ccccc12)c1ccc(Cl)c(Cl)c1	radioligand binding / binding	>1 µM
CCCCOCCOc1ccc(-c2ccc3c(c2)C=C(C(=O)Nc2ccc(C(O)c4cccc(C)[n+]4[O-])cc2)CCN3CC(C)C)cc1	radiometric	0.18 µM
CN1CC(C(=O)N(CCCN2CCC(Cc3ccccc3)CC2)c2cccc(Cl)c2)CC1=O	radiometric	<1 µM
COCCOc1ccc(-c2ccc3c(c2)C=C(C(=O)Nc2ccc(CN(C)C4CCOCC4)cc2)CCS3(=O)=O)cc1	radiometric	0.14 µM
Cc1ccc(-c2ccc3c(c2)C=C(C(=O)Nc2ccc(C(O)c4cccc[n+]4[O-])cc2)CCO3)cc1	radiometric	0.43 µM